Experimental data: patent publication US20230151302A1, “Cationic surfactants, in particular ethyl lauroyl arginate LAE, for treating or preventing infections and contaminations with Coronavirus” (priority 2020, published 2023)
Read-outs that look alike come from different tables or passages of the source.

Tested on: Raw 264.7 cells
Details: murine Norovirus test

Compound | Level of cytotoxicity (0.7% (m:v)) | Level of cytotoxicity (50 ppm) | Level of cytotoxicity (500 ppm) | Level of cytotoxicity (1000 ppm)
C=O [Formaldehyde, formaldehyde, reference compound] | 0.5 |  |  | 
L-arginine, N^α-lauroyl-ethyl ester monohydrochloride [LAE®] |  | 0.5 | 0.5 | 0.5
